Results published in ChEMBL document CHEMBL3351542, “Nonpeptide small molecule agonist and antagonist original leads for neuropeptide FF1 and FF2 receptors” (J Med Chem, 2014).

Legend:
[1] = species: Homo sapiens; assay: Selectivity ratio of Ki for human NPFF2 receptor to Ki for human NPFF1 receptor
[2] = species: Homo sapiens; assay: Selectivity ratio of Ki for human MOR to Ki for human NPFF2 receptor
[3] = species: Homo sapiens; assay: Selectivity ratio of Ki for human DOR to Ki for human NPFF1 receptor

Compound | Ratio Ki [1] | Ratio Ki [2] | Ratio Ki [3]
COc1cc(NC2(CNC(=O)CNC(=N)N)CCN(Cc3ccccc3)CC2)cc(OC)c1 | 8.7 | – | –
N=C(N)NCC(=O)NCC1(Nc2cccc3ccccc23)CCN(Cc2ccccc2)CC1 | 3.3 | – | –
N=C(N)NCC(=O)NCC1(Cc2ccccc2)CCN(Cc2ccccc2)CC1 | – | 2 | –
N=C(N)NCCC[C@H](N)C(=O)NCC1(Nc2ccccc2)CCN(Cc2ccccc2)CC1 | 2.2 | – | –
N=C(N)NCCNC(=O)C1(Nc2ccccc2)CCN(Cc2ccccc2)CC1 | 17.6 | – | > 18
